# Only a part is listed here, and it is no random draw. Activity calls are given as the source filed them. Cut-off read from the data, not from the text of the source: active = protection mostly above about 24% (no sharp cut-off); inactive = mostly below about 26%.
# Assay: compounds protecting cells from measles virus cytopathic effect, primary screen, measles RdRp inhibitor project, single point, MLSMR library, absorbance (AID 841)
# Details: Measles virus-infected cells, CPE protection, at 4 µM, stronger effect = higher value
row,SMILES,protection (pct of control)
1,O=C(OC1CN2CCC1CC2)C1c2ccccc2Oc2ccccc21 (stereo not drawn),inactive: 5.69%
2,O=C(NCC1(N2CCOCC2)CCCCC1)c1cc2ccccc2o1,inactive: 1.25%
3,COc1ccc(NC2CCN(CCc3ccccc3)CC2)c(OC)c1,inactive: 11.8%
4,O=C(NCC1(N2CCOCC2)CCCCC1)c1cc(=O)[nH]c2ccccc12,inactive: 22.4%
5,CN1CCN(CCOC(=O)C(O)(c2ccccc2)c2ccccc2)CC1,inactive: 3.93%
6,N#CC1(Nc2ccccc2)CCN(CCc2ccccc2)CC1,inactive: 6.01%
7,O=C(OC1CN2CCC1CC2)C1c2ccccc2C=Cc2ccccc21 (stereo not drawn),inactive: 7.74%
8,N/C(=N\O)c1c(N)no[n+]1[O-],inactive: 19.5%
9,c1ccc(CN2CCC(Nc3ccccc3)CC2)cc1,inactive: 11.6%
10,CCN1CCC(Nc2cccc(F)c2)CC1,inactive: 15.7%
11,Fc1ccccc1NC1CCN(Cc2ccccc2)CC1,inactive: 12.6%
12,CCC(CO)(C(=O)OC1CN2CCC1CC2)c1ccccc1 (stereo not drawn),inactive: 6.04%
13,CCOc1ncccc1C(=O)NCC1(N2CCOCC2)CCCCC1,inactive: 1.85%
